The text below walks through data of publication doi:10.1101/2025.01.06.631558v1.

The subject of the series is CC(O)(C(=O)O)C(CC(=O)O)C(=O)O. Put plainly: purified protein. To be noted: pH 7.5; 37.0 °C.

As a reminder, the Km is the concentration of substrate that gives half-maximal velocity. Regarding (Coxiella burnetii RSA 493), the Michaelis-Menten constant (Km) amounted to 390 ± 47 µM.
